Literature values in PMC10818719 (Viruses, 2023).

Tested on: bovine viral diarrhea virus (BVDV)
Details: cited from earlier work

Substance	antiviral activity with PDI toward BVDV
octa-methylpyridyloxy-substituted Ga phthalocyanine [Ga8]	Virucidal and irradiation effects
tetra-methylpyridyloxy-substituted Ga phthalocyanine [Ga4]	remarkable PDI
